Read-outs that look alike come from different tables or passages of the source.
Legend:
[1] = target: Aspergillus fumigatus chitinase A1 (AfChiA1) (Aspergillus fumigatus, UniProt Q873Y0); test: AfChiA1 fluorescent enzyme assay (4MU-GlcNAc3 hydrolysis), HTS and potency determination; type: biochemical
Protocol: The Dundee Drug Discovery Unit (DDU) diversity set of 59,904 compounds was solubilised in DMSO (final maximum assay concentration of 1% (v/v) in all samples including controls) and a HTS performed in singlet at a concentration of 30 μM. Library compounds and DMSO controls were transferred to 384-well black polystyrene plates (Matrix) using a Hummingbird (Genomic Solutions). Columns 1–22 received library compounds, columns 23 and 24 were reserved for high/low controls (DMSO) and an 8-point standard inhibitory curve with acetazolamide (Sigma), a micromolar AfChiA1 inhibitor [26]. Quality control (QC) plates, two per six assay plates, consisted of low control (columns 1–10), high control (columns 11–20) and a standard curve (columns 21–24). AfChiA1 catalyses the hydrolysis of chitin and an existing assay liberating 4-methylumbelliferyl (4-MU) from the fluorogenic substrate 4-methylumbelliferyl β-D-N,N′,N″-triacetylchitotrioside (4-MU-GlcNAc3, Sigma) was optimised for microtitre plate format compatible with HTS [26]. AfChiA1 activity was assayed in McIlvaine’s buffer (100 mM citric acid, 200 mM sodium phosphate [pH 5.5]) and 0.05 mg/ml BSA (Pierce) in a final reaction volume of 42 μl. Each reaction contained 10 nM AfChiA1 except eight wells in column 24 (screening plates) and columns 1–10 (QC plates), to which only buffer was added to determine background signal. The reaction was initiated by 100 μM 4MU-GlcNAc3 and both additions were executed using a FlexDrop reagent dispenser (PerkinElmer). Assay plates were incubated on a microtitre plate shaker (Heidolph) at room temperature for 70 min. Fluorescence generated from the release of 4-MU was quantified using an EnVision 2102 multilabel reader (Perkin Elmer).
The Activity Base Suite (Abase) version 5.4 from IDBS was used for all data processing and analyses. For all compounds, the raw relative fluorescent units (RFUs) were corrected and normalised to percentage inhibition (PI) according to the equations in Table S1. Calculation of the Z-factor to determine the quality of the screening assay was as follows: Z-factor=1-(3SDhigh control+3SDlow control)/(Meanhigh control-Meanlow control) for which SDhigh control and SDlow control represent the standard deviations of the response from 8 to 12 control wells (uninhibited signal) and 8 to 12 background signal wells, respectively. Subsequent curve fitting to determine the IC50 was with XLFit version 4.2 (IDBS) using a four-parameter dose response curve.
Initial hits were (a) re-assayed at 30 μM for verification and (b) potency determined to generate an approximate IC50. Compounds were transferred into columns 1 and 13 of a 384-well polypropylene plate (Matrix) and serially diluted in 100% DMSO through 10 half-log increments in row orientation using a JANUS 8-channel Varispan automated workstation (PerkinElmer). This produced a source plate containing thirty test and two standard inhibitor curves (100× final assay concentration) in columns 1–10 and 13–22. An additional QC plate containing acetazolamide was also generated. From these source plates 0.5 μl, corresponding to a final concentration range of 30 μM to 1.5 nM, were transferred into replicate black 384-well polystyrene assay plates in duplicate. AfChiA1 and substrate were added as in the original screen.
Compounds 1, 2, 6 and 7 (ChemBridge Corporation, San Diego, CA, USA); compounds 3, 4 and 8 (ChemDiv, San Diego, CA, USA); compounds 9 and 11 (Asinex Europe, Rijswijk, NED); compound 5 (Maybridge, Fisher Scientific, Loughborough, UK); compound 10 (InterBioScreen, Moscow, RUS) and compound 12 (Enamine, Monmouth, NJ, USA). For accurate duplicate potency determinations, the starting concentration was increased from 30 μM to 120 μM and diluted as described.

Protein sequences, listed by entry. Tags and fused reporters are not part of them. Residues count along the entry.
UniProt Q873Y0, 28-337 limits assumed: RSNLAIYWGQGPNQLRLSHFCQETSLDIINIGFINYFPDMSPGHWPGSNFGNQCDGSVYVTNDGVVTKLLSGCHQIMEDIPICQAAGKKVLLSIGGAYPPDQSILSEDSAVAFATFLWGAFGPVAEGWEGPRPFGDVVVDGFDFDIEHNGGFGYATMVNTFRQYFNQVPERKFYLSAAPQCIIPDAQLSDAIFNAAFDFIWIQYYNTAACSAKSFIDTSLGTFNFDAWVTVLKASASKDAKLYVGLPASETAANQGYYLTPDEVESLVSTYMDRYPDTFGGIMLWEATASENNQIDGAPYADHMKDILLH
UniProt Q9BZP6, 22-476 limits assumed: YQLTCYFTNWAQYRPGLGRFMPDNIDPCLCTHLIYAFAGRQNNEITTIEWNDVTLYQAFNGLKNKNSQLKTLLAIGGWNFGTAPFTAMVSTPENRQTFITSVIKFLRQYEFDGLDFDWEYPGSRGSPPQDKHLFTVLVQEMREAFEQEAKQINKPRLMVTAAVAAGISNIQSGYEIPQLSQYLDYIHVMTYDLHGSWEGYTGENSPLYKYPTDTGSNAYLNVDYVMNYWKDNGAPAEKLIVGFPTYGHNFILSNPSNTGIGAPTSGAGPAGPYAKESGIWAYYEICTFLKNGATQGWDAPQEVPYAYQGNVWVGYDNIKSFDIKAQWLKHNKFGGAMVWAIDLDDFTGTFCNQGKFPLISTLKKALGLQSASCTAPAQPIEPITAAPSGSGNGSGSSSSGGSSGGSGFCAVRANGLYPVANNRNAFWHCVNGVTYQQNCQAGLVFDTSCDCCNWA

[2] = target: acidic mammalian chitinase (AMCase) (Homo sapiens, UniProt Q9BZP6); test: Counter screening assay against AMCase; type: biochemical
[3] = target: A. fumigatus chitinase B1 (AfChiB1) (Aspergillus fumigatus, UniProt Q873X9); test: Counter screening assay against AfChiB1; type: biochemical; conditions: for IC50: read-out: GH18 family chitinase IC50, bacterial-type, AfChiB1, substrate 4MU-NAG2
Protocol: Counter screening assays to determine an IC50 against other GH18 family chitinases included S. cerevisiae CTS1 (ScCTS1, model plant-type chitinase) and three bacterial-type chitinases (A. fumigatus chitinase B1 [AfChiB], acidic mammalian chitinase [AMCase] and Homo sapiens chitinase 1/chitotriosidase [HsCHT]). Assays were performed as per AfChiA1 with the following modifications, [29]. Bacterial-type chitinases (AfChiB, AMCase and HsCHT) utilised 4-methylumbelliferyl β-D-N-N-diacetylchitobioside (4MU-NAG2) as a substrate and for these pentoxifylline (Sigma) was used as a control inhibitor [30]. Substrate concentrations for IC50 determinations were selected according to the published Km values for each enzyme, [29], [31], [32]. The mode of inhibition was established by Lineweaver–Burk plots of steady-state kinetics with 50 μM to 1 mM of 4MU-GlcNAc3 in the presence of different concentrations of selected compounds [23].

AfChiA1 = AfChiA1 (Aspergillus fumigatus, UniProt Q873Y0); test: Steady-state kinetics, Lineweaver-Burk analysis against AfChiA1; conditions: for Ki: read-out: inhibition constant Ki against AfChiA1, competitive inhibition model, 50 μM to 1 mM 4MU-GlcNAc3
[4] = read-out: GH18 family chitinase IC50, plant-type, AfChiA1, repeat potency determinations in duplicate on re-purchased compounds, 10-point dilution starting at 120 μM

SMILES | IC50 [1, 4] | IC50 [3] | also measured
Cc1nn(C)cc1C(=O)Nc1ccc(Cl)cc1 | 58.8 µM |  | 
CCc1nnc(NC(=O)c2sc3nccc(COC)c3c2N)s1 | 16.2 µM |  | 
NC1=C(c2nc3ccccc3[nH]2)C(=O)CN1CCc1ccccc1 | 19.4 µM |  | 
CC(=O)c1cnc2c(-c3ccc(Cl)cc3)cnn2c1C | 34.9 µM |  | fold difference of repeat AfChiA1 IC50 versus original potency determination ([1]; re-purchased compound versus original IC50): 15 fold
Cc1nc2sc(C(=O)Nc3c(F)cc(F)cc3Br)c(C)c2c(=O)[nH]1 | 6.6 µM |  | 
CSc1ccc(C2C(C#N)=C(N)Oc3nc(C)[nH]c(=O)c32)cc1 (stereo not drawn) | 14.3 µM |  | 
COc1ccccc1-c1noc2nc(C)[nH]c(=O)c12 |  | > 100 µM | drop-off in potency against AMCase compared to AfChiA1 [2]: fourfold drop-off in potency; activity against AfChiB [3]: no activity; Ki (AfChiA1): 1.2 µM; IC50 ([1]; read-out: initial IC50 against AfChiA1, original potency determination of primary hits, 10-point curves from 30 μM, duplicate): 1.7 µM
Cc1nc2scc(-c3ccccc3)c2c(=O)[nH]1 | 23.7 µM | 65.5 µM | 
Cc1c(C(=O)N2CCN(CCc3ccccc3)CC2)oc2ccccc12 | 11.4 µM | > 100 µM | mode of inhibition of AfChiA1 (AfChiA1; Lineweaver-Burk analysis): competes with the pseudo-substrate 4MU-GlcNAc3; Ki (AfChiA1): 10.6 µM
